Results reported in patent US20250346633A1, “MACOLACINS AND METHODS OF USE THEREOF” (priority 2021, published 2025).

Tested on: N. gonorrhoeae
Experiment: MIC assay (microbial susceptibility)
Conditions: intrinsically colistin resistant (chromosomally encoded PEtN transferase)

`CC[C@H](C)[C@@H]1NC(=O)[C@@H](CC(C)C)NC(=O)[C@H](CCN)NC(=O)[C@@H](NC(=O)[C@@H](CO)NC(=O)[C@@H](NC(=O)[C@H](CCN)NC(=O)c2ccc(-c3ccccc3)cc2)[C@@H](C)O)CCNC(=O)[C@H](CC(C)C)NC(=O)[C@H](CCN)NC(=O)[C@H](CCN)NC1=O` [Biphenyl-macolacin] was tested. Which MIC did it give?
Its MIC is 0.125 µg/mL (≈ 0.103 µM).

In brackets after ≈: the same amount, converted by molar mass.
